Pooled drug test results. Numbers come from NIAID ChemDB, via PubChem.

All rows: toxicity to cultured cells; endpoint: CC50

An empty or dashed field is not shown. CCn is the concentration with n% toxicity to the cells. Conditions beyond the fields shown may differ between rows.

SMILES,cell line,method,value
O=C(Cc1ccccc1Cl)NCCc1ccc2c(n1)NCCC2,PBMC,-,50 µM
NC(=S)Nc1cccc(OCCCCCOc2ccc(C(=O)O)cc2)c1,Ava5-EG(delta4AB)SEAP,MTS,>1 µM
CC(C)c1ccc(NC(=O)NCC2CCc3ccccc3N2)cc1,PBMC,-,50 µM
CCN(CC)c1ccc2c(c1)Cc1cc(NC(N)=S)ccc1-2,Ava5-EG(delta4AB)SEAP,MTS,>1 µM
O=C(NCCc1ccccn1)NCCc1ccc2c(n1)NCCC2,PBMC,-,50 µM
CC[C@@H](CCC[C@@H](CO)N(CCC(C)C)S(=O)(=O)c1ccc(N)c(F)c1)NC(=O)[C@@H](NC(=O)OC)C(c1ccccc1)c1ccccc1,T lymphoid cells,microscopy,>10 µM
O=C(O)c1cc(-c2cccs2)nc2ccccc12,HepG2,-,>20 µM
COC(=O)N[C@H](C(=O)N[C@H](CCC[C@@H](CO)N(CC(C)C)S(=O)(=O)c1ccc(CO)cc1)C1CC1)C(c1ccccc1)c1ccccc1,T lymphoid cells,microscopy,>10 µM
CCOC(=O)CCCCCOc1cccc(CN(C(=O)c2ccc(-c3cccc(N(C)C)c3)cc2)C(C)C)c1,HEK 293,-,>20 µM
COc1ccc(C)cc1NC(=O)NCCc1ccc2c(n1)NCCC2,PBMC,-,5 µM
O=c1c(C2CCCC2)c(O)c2cccnc2n1O,HeLa,-,<100 µM
NC(=S)Nc1ccccc1OCCCCCc1ccccc1,Ava5-EG(delta4AB)SEAP,MTS,>1 µM
C=CCCN(Cc1cc(OC)cc(OC)c1)C(=O)CC(C)=O,RAJI,-,<7.5 µM
CCOC(=O)c1c(O)c2c(-c3cccc(Br)c3)ccnc2n(O)c1=O,HeLa,-,<100 µM
Cc1ccc2ccccc2c1OCCCCCOc1cccc(NC(N)=S)c1,Ava5-EG(delta4AB)SEAP,MTS,>1 µM
COc1ccc(NC(=O)NCCc2ccc3c(n2)NCCC3)c(C)c1,PBMC,-,13 µM
O=c1cc(-c2ccncc2)c2cccnc2n1O,HeLa,-,<100 µM
CCOC(=O)CCCCCOc1cccc(CN(C(=O)c2ccc(-c3cccc([N+](=O)[O-])c3)cc2)C(C)C)c1,HEK 293,-,>20 µM
Cc1nccn1-c1cccc(CCNC(=O)Nc2cccc(F)c2)n1,PBMC,-,19.7 µM
COC(=O)N[C@@H](Cc1ccccc1Br)C(=O)N[C@H](CCC[C@@H](CO)N(C(C)C)S(=O)(=O)c1ccc(CO)cc1)C1CC1,T lymphoid cells,microscopy,>10 µM
CCOC(=O)CCCCCOc1cccc(CN(C(=O)c2ccc(-c3ccncc3)cc2)C(C)C)c1,BJ,-,>20 µM
COC(=O)N[C@H](C(=O)N[C@@H](C)CCC[C@@H](CO)N(C1CCC1)S(=O)(=O)c1ccc(CO)cc1)C(c1ccccc1)c1ccccc1,T lymphoid cells,microscopy,>10 µM
CCOC(=O)CN1CCN(c2cc(=O)n(O)c3ncccc23)CC1,HeLa,-,<100 µM
S=C(NCCc1ccc2c(n1)NCCC2)Nc1cccc2ccccc12,PBMC,-,0.9 µM
CCOC(=O)CCCCCOc1cccc(CN(C(=O)c2ccc(-c3cccc(OC(C)C)c3)cc2)C(C)C)c1,BJ,-,>20 µM
COC(=O)N[C@H](C(=O)N[C@H](CCC[C@@H](CO)N(CCC(C)C)S(=O)(=O)c1ccc(CO)cc1)C1CC1)C(c1ccc(F)cc1)c1ccc(F)cc1,T lymphoid cells,microscopy,>10 µM
Cc1cccc(S(=O)(=O)NCCc2ccc3c(n2)NCCC3)c1,PBMC,-,50 µM
S=C(Nc1cccc(OCCCCCc2ccccc2)c1)N1CCN(CCCc2ccccc2)C1=S,Ava5-EG(delta4AB)SEAP,MTS,>1 µM
O=C(Nc1ccc(C(F)(F)F)cc1)Nc1ccc2c(c1)CCC2,PBMC,-,2 µM
COC(=O)N[C@H](C(=O)N[C@H](CCC[C@@H](CO)N(CCC(C)C)S(=O)(=O)c1ccc(CO)cc1)C1CC1)C(c1ccccc1)c1ccccc1,T lymphoid cells,microscopy,>10 µM
CCOC(=O)CCCCCOc1cccc(CN(C(=O)c2ccc(-c3ccc4c(c3)OCCO4)cc2)C(C)C)c1,HEK 293,-,>20 µM
NC(=S)Nc1cccc(OCCCCOc2cccc3ccccc23)c1,Ava5-EG(delta4AB)SEAP,MTS,>1 µM
CCOC(=O)c1c(O)c2cc(C(=O)N3CCC(CCCc4ccccc4)CC3)cnc2n(O)c1=O,HeLa,-,<100 µM
NC(=S)Nc1cccc(OCCCCCCOc2ccccc2)c1,Ava5-EG(delta4AB)SEAP,MTS,>1 µM
COC(=O)N[C@H](C(=O)N[C@@H](C)CCC[C@@H](CO)N(CCC(C)C)S(=O)(=O)c1ccc(N)c(F)c1)C(c1ccccc1)c1ccccc1,T lymphoid cells,microscopy,>10 µM

The last 4 rows once more:

| SMILES | cell line | method | value |
|---|---|---|---|
| NC(=S)Nc1cccc(OCCCCOc2cccc3ccccc23)c1 | Ava5-EG(delta4AB)SEAP | MTS | >1 µM |
| CCOC(=O)c1c(O)c2cc(C(=O)N3CCC(CCCc4ccccc4)CC3)cnc2n(O)c1=O | HeLa | - | <100 µM |
| NC(=S)Nc1cccc(OCCCCCCOc2ccccc2)c1 | Ava5-EG(delta4AB)SEAP | MTS | >1 µM |
| COC(=O)N[C@H](C(=O)N[C@@H](C)CCC[C@@H](CO)N(CCC(C)C)S(=O)(=O)c1ccc(N)c(F)c1)C(c1ccccc1)c1ccccc1 | T lymphoid cells | microscopy | >10 µM |